Target: RTA (Ricinus communis, UniProt P02879)

Compound	Kd [µM]
CCN(CC)S(=O)(=O)c1cccc(NN=C2C(=O)NC(=O)NC2=O)c1	0.923
Nc1nc2ncc(CNc3ccc(C(=O)O)cc3)nc2c(=O)[nH]1	8.68

From publication PMC11012547, “Identification and Biological Evaluation of a Novel Small-Molecule Inhibitor of Ricin Toxin” (2024)
